Test results: the supplement of paper PMC9931576
Human monoclonal antibodies against the spike receptor-binding domain (heavy:light variable regions). IC50 against pseudoviruses bearing the spike of naturally observed variants; lower = stronger; >10 µg/ml means not reached at the top dose. No active / inactive call. The stated detection limit is 0.0005 µg/ml; values near or below 0.001 µg/ml lie at the floor of the assay.

B1: BD56-221 (protein)
chain 1: QLQLQESGPGLVKPSETLSLTCTVSGGSISSSNFYWGWIRQPPGKGLEWIGSIYYSGRTYYTPSLKSRVTISVDTSKNQFSLKLSSVTAADTAIYYCARQPRQLSSGWYYYAMDVWGQGTTVAVSS
chain 2: QSALTQPASVSGSPGQSITISCTGTSSDVGSYNLVSWYQQHPGKAPKLLLYEGSKRPSGVSDRFSGSKSGNTASLTISGLQAEDEADYYCCSYAGLWIFGGGTKLTVL
B2: BD56-232 (protein)
chain 1: EVQLVESGGGLIQPGGSLRLSCAASGIIVNSNYMIWVRQAPGKGLEWVSIIYSGGSTFYSDSVKGRFTISRDSSKNTLYLQMNTLRVEDTAVYYCAREGLTGTTLSFDYWGQGTLVTVSS
chain 2: DIQMTQSPSSLSASVGDRVTFTCRASQSISNSLNWYQQKPGRAPKLLIYAASSLQSGVPSRFSGSGSGTDFTLTISSLHPEDFATYYCQQSFSTPPYTFGQGTKLEIK
B3: BD56-233 (protein)
chain 1: QVQLEESGGGVVQPGRSLRLSCAASGFRFSSYGMHWVRQAPGKGLEWVAIISHDGSNKYYADSVKGRFTFSRDNSKNTLDLQMNSLRAEDTAVYYCAKETHYYDSSGSYGVGLAFDYWGQGTLVTVSS
chain 2: DIQMTQSPSSLSASVRDRVTITCRASQTISSYLNWYQQKPGKAPKLLIYGASNLQSGVPPRFSGSGSGTEFTLTISSLQPEDFASYYCQQSHSTPRTFGQGTKVEIK
B4: BD56-263 (protein)
chain 1: QVQLVQSGAEVKKPGASVKVSCKASGYSFLNYGITWVRQAPGQGLEWMGWISTYNGNTLYAQRYQGRVTMTTDTSTSTAFVELRSLRSDDTAVYFCARRSQIAVVGTWDHSYYGMDVWGQGTTVSVSS
chain 2: SHELTQPPSVSVSPGQTARITCSGDALPKQYGYWYQQKPGQAPVLVMSKDSERPSGIPERFSGSSSGTTVTLTISGVQAEDEADYYCQSADSRGTVFGGGTKLTVL
B5: BD56-330 (protein)
chain 1: EVQLVESGGGVVRPGGSLRLSCAASGFTFADYGIAWVRQVPGKGLEWVAGISWSGANTGHADSVKGRFTISRDNAKNSLYLQMNSLRAEDTAFYHCARVSSINCLVWCAFDIWGQGTMVTVSS
chain 2: EIVMTQSPATLSVSPGERATLSCRASQSVNNKLAWYQQKPGQAPRLLIYGASTRATSIPARFSGSGSGTEFTLTISSLQSEDFAIYYCQQYNNWPPGITFGQGTRLEIK
B6: BD56-331 (protein)
chain 1: QVQLVESGGGVVQPGRSLRLSCAASGFTFSNYAMHWVRQAPGKGLEWVAIIWYDGSNKHYAESVKGRFTISRDNSKNTLYLQMNSLRAEDTAVYYCAKNEGVYGSGSYYLFDYWGQGTVVTVSS
chain 2: DIQMTQSPSSLSASVGDRVTITCQASQDISNYLNWYQEKPGKAPKLLIYEASKLETGVPSRFSGGGSETDFTFTISSLQPEDIATYYCQQFDNLPITFGQGTRLEIK

How the values were obtained:
Test in all cases: pseudovirus neutralization IC50; higher = weaker neutralization
[1] = molecular target: SARS-CoV-2 Omicron BA.1 spike pseudovirus
Experimental: (§1)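 Single-round VSV luciferase pseudovirus mixed with antibody dilutions for 1 h and put on Huh-7 cells for about a day; IC50 from the dose curve.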

[2] = molecular target: SARS-CoV-2 Omicron BA.2 spike pseudovirus
Experimental: as §1

[3] = molecular target: SARS-CoV-2 Omicron BA.2.75 spike pseudovirus
Experimental: as §1

[4] = molecular target: SARS-CoV-2 Omicron BA.5 spike pseudovirus
Experimental: as §1

[5] = molecular target: SARS-CoV-2 Omicron BQ.1.1 spike pseudovirus
Experimental: as §1

[6] = molecular target: SARS-CoV-2 Omicron XBB spike pseudovirus
Experimental: as §1

[7] = molecular target: SARS-CoV-2 early D614G spike pseudovirus
Experimental: as §1

Binder | pseudovirus neutralization IC50 [1] | pseudovirus neutralization IC50 [2] | pseudovirus neutralization IC50 [3] | pseudovirus neutralization IC50 [4] | pseudovirus neutralization IC50 [5] | pseudovirus neutralization IC50 [6] | pseudovirus neutralization IC50 [7]
B1 | > 10 µg/mL | > 10 µg/mL | > 10 µg/mL | > 10 µg/mL | > 10 µg/mL | > 10 µg/mL | > 10 µg/mL
B2 | 0.0688 µg/mL | 0.0496 µg/mL | 0.685 µg/mL | 0.0485 µg/mL | 1.44 µg/mL | 1.92 µg/mL | 0.00976 µg/mL
B3 | 0.0814 µg/mL | 0.117 µg/mL | 0.101 µg/mL | 0.735 µg/mL | > 10 µg/mL | > 10 µg/mL | 0.00335 µg/mL
B4 | 8.23 µg/mL | 6.43 µg/mL | 3.75 µg/mL | > 10 µg/mL | > 10 µg/mL | 7.31 µg/mL | 2.43 µg/mL
B5 | > 10 µg/mL | > 10 µg/mL | > 10 µg/mL | > 10 µg/mL | > 10 µg/mL | > 10 µg/mL | 1.46 µg/mL
B6 | > 10 µg/mL | > 10 µg/mL | > 10 µg/mL | > 10 µg/mL | > 10 µg/mL | > 10 µg/mL | > 10 µg/mL
